Pooled drug test results. Numbers come from NIAID ChemDB, via PubChem.

Shared fields: toxicity to cultured cells; cells: MT-4; read-out: CC50

Blank or dashed fields: not listed here. Conditions beyond the fields shown may differ between rows. CCn: concentration that lowers growth or viability of the cells by n%.

{"compound": "O=C(NCCCCCCN1CCC[C@H]2C[C@@H]3C[C@@H](CN4CCCC[C@H]34)[C@@H]21)c1c(F)cc(Br)cc1F", "read by": "luminescence", "result": ">20 µM"}
{"compound": "N#Cc1cccc(Oc2cc(Cl)cc(OCC(=O)Nc3ccc(S(N)(=O)=O)cc3Cl)c2)c1", "read by": "microscopy", "result": ">20 µM"}
{"compound": "N#C/C(=C\\c1ccc[nH]1)n1nnc2ccccc21", "result": ">100 µM"}
{"compound": "Cc1c(C(C)c2ccc(F)cc2)n(COCc2ccccc2)c(=O)[nH]c1=O", "read by": "MTT", "result": ">339.3 µM"}
{"compound": "Cc1noc(CN2CCn3c(nc(C(=O)NCc4ccc(F)cc4)c(O)c3=O)C2(C)C)n1", "read by": "microscopy", "result": ">1 µM"}
{"compound": "CC1C(=S)Nc2ccc(Cl)cc2S(=O)(=O)N1Cc1cc(Cl)cc(Cl)c1", "read by": "MTT", "result": "90 µM"}
{"compound": "CCOC(=O)CNc1nc(NC(=O)Nc2ccccc2OC)nc(Oc2cc(=O)oc3ccccc23)n1", "read by": "MTT", "result": ">125 µg/mL"}
{"compound": "C[C@H]1CC[C@]2(CC(C3CC3)=NO2)[C@H]2CN1C(=O)c1c(O)c(=O)c(C(=O)NCc3ccc(F)cc3F)cn12", "read by": "luminescence", "result": "50 µM"}
{"compound": "Cc1cc(C#N)cc(C)c1Oc1ccnc(Nc2ccc(CNC3CCN(C(=O)OC(C)(C)C)CC3)cc2)n1", "read by": "MTT", "result": "3.51 µM"}
{"compound": "C[C@H]1CC[C@]2(CC(=O)N([C@@H](C)c3ccccc3)O2)[C@H]2CN1C(=O)c1c(O)c(=O)c(C(=O)NCc3c(F)cc(F)cc3F)cn12", "read by": "luminescence", "result": "50 µM"}
{"compound": "CN1CCn2c(nc(C(=O)NCc3ccc(F)cc3)c(O)c2=O)C1COCc1ccccc1", "read by": "microscopy", "result": ">10 µM"}
{"compound": "O=C(NCCCCN1CCCC2=C[C@@H]3C[C@@H](CN4CCCC[C@H]34)[C@@H]21)c1c(F)cc(Br)cc1F", "read by": "luminescence", "result": ">20 µM"}
{"compound": "CCCOC(=O)c1cc(O)c(O)c(O)c1", "result": "11.4 µg/mL"}
{"compound": "C[C@H]1CC[C@]2(CC(n3nccn3)=NO2)[C@H]2CN1C(=O)c1c(O)c(=O)c(C(=O)NCc3c(F)cc(F)cc3F)cn12", "read by": "luminescence", "result": "3.185 µM"}
{"compound": "COc1ccc(CCNc2nc(NC(=S)Nc3ccc4ccccc4c3)nc(Oc3cc(=O)oc4ccccc34)n2)cc1OC", "read by": "MTT", "result": "54.6 µg/mL"}
{"compound": "O=CC(OC(=O)c1cc(O)c(O)c(O)c1Oc1cc2c(c(O)c1O)-c1c(cc(O)c(O)c1O)C(=O)OC1C(COC2=O)OC(OC(=O)c2cc(O)c(O)c(O)c2)C(OC(=O)c2cc(O)c(O)c(O)c2)C1OC(=O)c1cc(O)c(O)c(O)c1)C(OC(=O)c1cc(O)c(O)c(O)c1)C1OC(=O)c2cc(c(O)c(O)c2O)-c2c(cc(O)c(O)c2O)C(=O)OCC1O", "result": "42 µg/mL"}
{"compound": "C=Cc1cc(N(C)C)nc(S(C)(=O)=O)n1", "read by": "MTT", "result": "110 µM"}
{"compound": "O=C1CNS(=O)(=O)c2cc(Cl)ccc2N1", "read by": "MTT", "result": "≥200 µM"}
{"compound": "C[C@H]1CC[C@@]2(ON=C(CF)[C@@H]2O)[C@H]2CN1C(=O)c1c(O)c(=O)c(C(=O)NCc3ccc(F)cc3F)cn12", "read by": "luminescence", "result": "50 µM"}
{"compound": "N#C/C(=C\\c1ccccc1C(F)(F)F)n1nnc2ccccc21", "result": "5 µM"}
{"compound": "Nc1ncc2ncn(C[C@H](CF)OCP(=O)(O)O)c2n1", "result": ">300 µM"}
{"compound": "Cc1cc(C#N)cc(C)c1Oc1ccnc(Nc2ccc(CN3CCC(NS(N)(=O)=O)CC3)cc2)n1", "read by": "MTT", "result": "3.72 µM"}
{"compound": "CCC(O)(c1ccccc1C)c1c(C)c(=O)[nH]c(=O)n1COCc1ccccc1", "read by": "MTT", "result": "163 µM"}
{"compound": "N#C/C(=C\\c1ccc(C(F)(F)F)cc1)n1nnc2ccccc21", "result": "3.5 µM"}
{"compound": "O=c1oc2c(O)c(O)cc3c(=O)oc4c(O)c(O)cc1c4c23", "result": "80 µg/mL"}
{"compound": "N#C/C(=C\\c1ccc(F)c(F)c1)n1nnc2ccccc21", "result": "2.5 µM"}
{"compound": "Nc1nc2c(ncn2C[C@@H](CO)OCP(=O)(O)O)c(=O)[nH]1", "result": "147 µM"}
{"compound": "C[C@H]1CCC2(N=c3ccccc3=N2)[C@H]2CN1C(=O)c1c(O)c(=O)c(C(=O)NCc3c(F)cc(F)cc3F)cn12", "read by": "luminescence", "result": "50 µM"}
{"compound": "N#C/C(=C\\c1ccc2c(c1)OCO2)n1nc2ccccc2n1", "result": ">100 µM"}
{"compound": "CN1CCn2c(nc(C(=O)NCc3ccc(F)cc3)c(O)c2=O)C(NCC2CCCCC2)C1", "read by": "microscopy", "result": ">1 µM"}
{"compound": "O=C(NCCCCN1CCCC2=C[C@@H]3C[C@@H](CN4CCCC[C@H]34)[C@@H]21)c1ccc(OC(F)(F)F)cc1", "read by": "luminescence", "result": ">20 µM"}
{"compound": "NS(=O)(=O)c1ccc(NC(=O)COc2cc(Cl)cc(Oc3cncc(Br)c3)c2)c(Cl)c1", "read by": "microscopy", "result": ">20 µM"}
{"compound": "COc1ccc(/C=C/CSc2nc(C(C)c3c(Cl)cccc3Cl)c(C)c(=O)[nH]2)cc1", "read by": "MTT", "result": ">10.84 µM"}
{"compound": "CCC(c1ccccc1C)c1c(C)c(=O)[nH]c(=O)n1COCc1ccccc1", "read by": "MTT", "result": "43.12 µM"}
{"compound": "N#Cc1cc(Cl)cc(Oc2cc(Cl)cc(OCc3[nH]nc4ccccc34)c2)c1", "read by": "microscopy", "result": ">20 µM"}
{"compound": "COC1=NS[C@]2(CC[C@H](C)N3C[C@H]2n2cc(C(=O)NCc4ccc(F)cc4F)c(=O)c(O)c2C3=O)C1", "read by": "luminescence", "result": "50 µM"}
{"compound": "CC1C(=S)Nc2ccc(Cl)cc2S(=O)(=O)N1Cc1c(F)cccc1F", "read by": "MTT", "result": "≥200 µM"}
{"compound": "CCCCCCCCCCCCCCCCCCOC(=O)c1cc(O)c(O)c(O)c1", "result": "1.4 µg/mL"}
{"compound": "CCC(c1ccc(C)cc1)c1c(C)c(=O)[nH]c(=O)n1COCc1ccccc1", "read by": "MTT", "result": "43.7 µM"}
{"compound": "N#C/C(=C\\c1cccc(F)c1)n1nnc2ccccc21", "result": "3.6 µM"}
{"compound": "CCN1C(C)Cn2c(=S)[nH]c3cc(Cl)cc(c32)S1(=O)=O", "read by": "MTT", "result": "93 µM"}
{"compound": "O=C(NCCCCCCN1CCC[C@@H]2C[C@@H]3C[C@@H](CN4CCCC[C@H]34)[C@@H]21)c1ccc(OC(F)(F)F)cc1", "read by": "luminescence", "result": ">20 µM"}
{"compound": "Cc1c(Cc2c(Cl)cccc2Cl)nc(SC/C=C/c2ccc(N(C)C)cc2)[nH]c1=O", "read by": "MTT", "result": ">54.35 µM"}
{"compound": "COc1ccc(CCNc2nc(NC(=O)Nc3ccc(Br)cc3)nc(Oc3cc(=O)oc4ccccc34)n2)cc1OC", "read by": "MTT", "result": "47.63 µg/mL"}
{"compound": "C=Cc1cc(N(C)C)nc(SC)n1", "read by": "MTT", "result": "57 µM"}
{"compound": "CCOC(=O)CN(CC)S(=O)(=O)c1cc(Cl)ccc1N", "read by": "MTT", "result": ">200 µM"}
{"compound": "CCOC(=O)CNc1nc(Nc2ccc(OC)cc2)nc(Oc2cc(=O)oc3ccccc23)n1", "read by": "MTT", "result": "58.6 µg/mL"}
{"compound": "CC(=O)N1CCn2c(nc(C(=O)NCc3ccc(F)cc3)c(O)c2=O)C1(C)C", "read by": "microscopy", "result": ">1 µM"}
{"compound": "C[C@H]1CC[C@@]2(CC(O)CO2)[C@H]2CN1C(=O)c1c(O)c(=O)c(C(=O)NCc3c(F)cc(F)cc3F)cn12", "read by": "luminescence", "result": "50 µM"}
{"compound": "NC(=O)/C(=C\\c1ccccc1)n1nnc2ccccc21", "result": "11 µM"}
{"compound": "Cc1cc(C#N)cc(C)c1Oc1cc(Cl)nc(Nc2ccc(CN3CCOCC3)cc2)c1", "read by": "MTT", "result": "7 µM"}
{"compound": "O=C(NCCCCCCN1CCCC2=C[C@@H]3C[C@@H](CN4CCCC[C@H]34)[C@@H]21)c1ccc(Br)c(C(F)(F)F)c1", "read by": "luminescence", "result": ">20 µM"}
{"compound": "N#Cc1cc(Cl)cc(Oc2cc(F)cc(OCc3[nH]nc4nc(N)ccc34)c2)c1", "read by": "microscopy", "result": ">20 µM"}
{"compound": "O=C1O[C@H]2[C@@H]3OC(=O)c4cc(O)c(O)c(O)c4-c4c(cc(Oc5c(C(=O)O[C@H]6[C@H](OC(=O)c7cc(O)c(O)c(O)c7)O[C@H](COC(=O)c7cc(O)c(O)c(O)c7)[C@@H](OC(=O)c7cc(O)c(O)c(O)c7)[C@@H]6OC(=O)c6cc(O)c(O)c(O)c6)cc(O)c(O)c5O)c(O)c4O)C(=O)OC[C@H]2O[C@@H](OC(=O)c2cc(O)c(O)c(O)c2)[C@@H]3OC(=O)c2cc(O)c(O)c3c2[C@H]2C(=O)[C@@](O)(O3)C(=O)C=C12", "result": "29.3 µg/mL"}
{"compound": "COC1=NO[C@@]2(CC[C@H](CF)N3C[C@H]2n2cc(C(=O)NCc4ccc(F)cc4F)c(=O)c(O)c2C3=O)C1", "read by": "luminescence", "result": "50 µM"}
{"compound": "N#C/C(=C\\c1cccc(I)c1)n1nnc2ccccc21", "result": "3 µM"}
{"compound": "O=CC1OC(=O)c2cc(O)c(O)c(O)c2Oc2cc3c(c(O)c2O)-c2c(cc(O)c(O)c2O)C(=O)OC2C(COC3=O)OC(OC(=O)c3cc(O)c(O)c(O)c3)C(OC(=O)c3cc(O)c(O)c(O)c3Oc3cc4c(c(O)c3O)-c3c(ccc(O)c3O)C(=O)OCC(O)C(OC4=O)C1OC(=O)c1cc(O)c(O)c(O)c1)C2OC(=O)c1cc(O)c(O)c(O)c1", "result": "50.8 µg/mL"}
{"compound": "Nc1ncnc2c1ncn2C[C@H](CO)OCP(=O)(O)O", "result": ">300 µM"}
{"compound": "CS(=O)(=O)c1ccc2c(c1)CCN2C(=O)COc1ccc(Cl)c(Oc2cc(Cl)cc(C#N)c2)c1", "read by": "microscopy", "result": ">20 µM"}
{"compound": "C[C@H]1CC[C@]2(CC(=O)N(Cc3ccc4scnc4c3)O2)[C@H]2CN1C(=O)c1c(O)c(=O)c(C(=O)NCc3c(F)cc(F)cc3F)cn12", "read by": "luminescence", "result": "50 µM"}
{"compound": "Cc1cc(CNC(=O)c2nc3n(c(=O)c2O)CCN(C2CC2)CC3N(C)C(=O)C(=O)N(C)C)ccc1F", "read by": "microscopy", "result": ">1 µM"}
{"compound": "Cc1cc(C#N)cc(C)c1Oc1ccnc(Nc2ccc(CN3CCN(S(C)(=O)=O)CC3)cc2)n1", "read by": "MTT", "result": "3.43 µM"}

The first 4 rows once more:

compound	read by	result
O=C(NCCCCCCN1CCC[C@H]2C[C@@H]3C[C@@H](CN4CCCC[C@H]34)[C@@H]21)c1c(F)cc(Br)cc1F	luminescence	>20 µM
N#Cc1cccc(Oc2cc(Cl)cc(OCC(=O)Nc3ccc(S(N)(=O)=O)cc3Cl)c2)c1	microscopy	>20 µM
N#C/C(=C\c1ccc[nH]1)n1nnc2ccccc21	-	>100 µM
Cc1c(C(C)c2ccc(F)cc2)n(COCc2ccccc2)c(=O)[nH]c1=O	MTT	>339.3 µM